Results as given in the supplement of paper PMC9931576.
Human monoclonal antibodies against the spike receptor-binding domain (heavy:light variable regions). IC50 against pseudoviruses bearing the spike of naturally observed variants; lower = stronger; >10 µg/ml means not reached at the top dose. No active / inactive call. The stated detection limit is 0.0005 µg/ml; values near or below 0.001 µg/ml lie at the floor of the assay.

B1: BD57-069 (protein)
chain 1: EGQLLESGGGLVQPGGSLRLSCAASGFTFSSYAMSWVRQAPGKGLEWVSVISGSSVNTDYADSVKGRFTISRDNSKNTLYLQMNSLRVEDTAIYYCARDRFTMLQGPYWGFDPWGQGTLVTVSS
chain 2: DVQMTQSPSSLSASVGDRVTLTCRASQSISHYLNWYQQKPGKAPKLLIYGASTLQSGVPSRFAGSGSGTDFTLTISSLQPEDFATYYCQQSYTTPALTFGGGTKVE
B2: BD57-062 (protein)
chain 1: QMQLVQSGPEVKKPGTSVKVSCKASGFTFTTSAVQWVRQTRGQRLEWMGWIVVASGETDYAQRFQERVTITRDLSTSTAYMELSSLRSEDTSVFYCATNSCSRSTCYDGFDIWGQGTMVTVSS
chain 2: EIVLTQSPGTLSLSPGERATLSCRASQSVRSSYLAWYQQKPGQAPRLLIYGASSRATGIPDRFSGSGSETDFTLTISRLEPEDFAMYYCQQYDSPPPWTFGQGTKVEIK
B3: BD57-073 (protein)
chain 1: QVQLQQWGAGLLKPSETLSLTCAVHGGSFSGYYWSWIRQPPGKGLEWVGEINQSGSTNYNPSLKSRVTISVDTSKNQLSLKLKSVTAADTAVYYCAREVQYDILTGQPLPGSFDAFDIWGQGTMVTVSS
chain 2: QSVLTQPPSASGTPGQRVTISCSGSNSNMGTNTVNWYQHLPGTAPKLLIYSNNQRPSGVPDRFSGSKSGTSASLAISGLQSEEEADYYCAVWDDSLNGVVFGGGTKLTVL
B4: BD57-046 (protein)
chain 1: QVPVVESGGGVVKPGRSLRLSCAPSGFTFSSYSMHWVRQAPGKGLEWVAVISYDETVKYYADSVKGRFTISRDNSKNTLYLQMNSLRPEDTAVYYCARGGYEIYLFDGLDVWGQGTTVTVSS
chain 2: DIQMTQSPSSLSASVGDSVSLRCRASHSISRYLNWYQQRPGRAPKLLIYSASSLQSGVPSRFSGSGSGTDFTLTISSLQPEDFATYYCQHSYGNPPYTFGQGTKLEIK
B5: BD57-087 (protein)
chain 1: QVQLVQSGAEVKKPGSSVKVSCKASGGTFSSDSITWVRQAPGQGLEWMGRVIPTLGVAYYAQNFQGRVTITADRSTSTAYMELSSLRSDDTAVYYCARESAVRGINTVWFDPWGQGTLVTVSS
chain 2: QSVLTQPPSVSGAPGQRVTISCTGSNSNIGAGYDVHWYQHLPGRAPKLLIYGNSNRPSGVPDRFSGSKSDTSASLAITGLLPEDEADYYCQSYDSSLSDSIFGGGTKLAVL
B6: BD57-058 (protein)
chain 1: QVQLVQSGAEVKKPGSSVRVSCKASGGTLSSYAISWVRQAPGQGLEWMGGIIPMYGTANYAQRFQGRITITADESTSTAYMQLSSLRSEDTAVYYCARDLAVSSGRLSFYYYMDVWGKGTTVTVSS
chain 2: QTVVTQEPSFSVSPGGTVTLTCALSSGSVSTSYFPSWYQQTPGQAPRTLIYSTNTRSSGVPDRFSGSILGNKAALTITGAQAHDESDYYCVLYMDSGIVLFGGGTKLTVL
B7: BD57-078 (protein)
chain 1: EVQLVESGGGLVQPGRSLRLSCAASGFTFDDYAMHWVRQTPGQGLEWVSGVTWNSGTIGYTDSVKGRFTISRDNAKNSLFLQMNRLRVEDTAFYYCVKDMGVKSLWWEKEYYGMDVWGQGTTVTVSS
chain 2: QSVLTQPPSVSAAPGQKVTISCSGSSSNIGNNYVSWFRQLPGTAPKLLIYDNNKRPSGIPDRFSGSKSGTSATLGITGLQTGDEADYYCGTWDSSLSVYVFGTGTKVTVL
B8: BD57-067 (protein)
chain 1: QVQLMQSGAEVKKPGSSVKVSCKASGGTFSSSAINWLRQAPGQGLEWMGRIIPTLGVAEYAQRFQGRVAISADKSTSTAYMELKSLTSEDTAVYYCARGTAEYSVVVVAATHIEYFQHWGQGTLVTVSS
chain 2: EIVMTQSPATLSVSPGERVTLSCRASQTVTINLAWYQQKPGQAPTLLIYGASVRATGIPARFSGSGSGTEFTLTISSLQSEDFAVYYCQQYNNSPPYTFGQGTKLEIK
B9: BD57-085 (protein)
chain 1: EVQLVQSGAEVKKPGESLRISCKGSGYIFISYWINWVRQMPGKGLEWMGKIDPSDSYTNYSPSLQGHVTISADKSISTVYLQWSSLKASDTAMYYCATSEVWGQGTLVTVSS
chain 2: NFMLTQPHSVSESPGKTVTISCTRSSGSIASNYVQWYQQRPGSSPITVIYEDNQRPSGVPDRFSGSIDSSSNSASLTISGLKTEDEADYYCQSYDSSNTVFGGGTKLTVL
B10: BD57-066 (protein)
chain 1: EVQLVESGGGLVKPGGSLRLSCATSGFTFSSYSMNWVRQAPGKGLEWVSSISSSSSYIYYADSVKGRFTISRDNAKKSLYLQLNSLRAEDTAVYYCARGYWTETLPVFDYWGQGTLVTVSS
chain 2: NFMLTQPHSVSESPGQTVTISCTGNSGSIANNYVQWYQQRPGSAPTTVIYEDNQRPSGVPDRFSGSIDSSSNSASLTISGLQTEDEADYYCQSFEGNTHVVFGGGTKLTVL
B11: BD57-075 (protein)
chain 1: EVQLVESGGGLVQPGGSLRLSCAASGFTFRSYDMHWVRQPTGKGLEWVSVIGTAGDTYYRDSVKGRFTISRENAKNSLNLQMNSLRAGDTAVYFCARGDIKSGLHIDYWGQGTLVTVSS
chain 2: DIQMTQSPSSLSASVGDRVTITCRASQSISSFLNWYQHKPGKAPKLLIYATSSLQSGVPSRFSGSGSGTDFTLTISSLQPEDFATYYCQQTYETPPWTFGQGTKVEIK
B12: BD57-043 (protein)
chain 1: QVQLVQSGAEVKKPGSSVKVSCKASGGTFSSYAINWVRQAPGQGLEWMGRIISMFDISNYAQNFQGRVTITADKSTSTAYMELNSLRSEDTAVYYCATTKFFYETGVGYYFEYWGQGTLVTVSS
chain 2: EIVLTQSPGTLSLSPGERATLSCRASQNLSSNYLAWYQQKPGQAPRLLIYGASSRATGIPDRFSGSGSGTDFILTISRLEPEDFAVYYCQQYHTSRTFGQGTKVEIK

target: SARS-CoV-2 Omicron BA.1 spike pseudovirus; assay: pseudovirus neutralization IC50; higher = weaker neutralization
Description: (§1)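 Single-round VSV luciferase pseudovirus mixed with antibody dilutions for 1 h and put on Huh-7 cells for about a day; IC50 from the dose curve.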

Binder	pseudovirus neutralization IC50 [µg/mL]
B1	0.286
B2	0.00306
B3	0.459
B4	0.0167
B5	0.144
B6	0.0569
B7	0.0341
B8	0.00363
B9	0.0136
B10	1.02
B11	> 10
B12	0.00243

target: SARS-CoV-2 Omicron BA.2 spike pseudovirus; assay: as above
Description: as §1

Binder	pseudovirus neutralization IC50 [µg/mL]
B1	0.0399
B2	0.00215
B3	0.479
B4	0.0148
B5	0.0733
B6	0.0938
B7	0.046
B8	0.0012
B9	0.251
B10	1.27
B11	> 10
B12	0.0023

target: SARS-CoV-2 Omicron BA.2.75 spike pseudovirus; assay: as above
Description: as §1

Binder	pseudovirus neutralization IC50 [µg/mL]
B1	0.232
B2	0.00139
B3	0.55
B4	0.0142
B5	0.0585
B6	0.0252
B7	0.0385
B8	0.00355
B9	0.011
B10	1.05
B11	> 10
B12	0.00216

target: SARS-CoV-2 Omicron BA.5 spike pseudovirus; assay: as above
Description: as §1

Binder	pseudovirus neutralization IC50 [µg/mL]
B1	> 10
B2	1.27
B3	> 10
B4	> 10
B5	> 10
B6	0.0688
B7	0.434
B8	> 10
B9	0.494
B10	0.996
B11	> 10
B12	> 10

target: SARS-CoV-2 Omicron BQ.1.1 spike pseudovirus; assay: as above
Description: as §1

Binder	pseudovirus neutralization IC50 [µg/mL]
B1	> 10
B2	> 10
B3	> 10
B4	> 10
B5	> 10
B6	> 10
B7	> 10
B8	> 10
B9	> 10
B10	1.18
B11	> 10
B12	> 10

target: SARS-CoV-2 Omicron XBB spike pseudovirus; assay: as above
Description: as §1

Binder	pseudovirus neutralization IC50 [µg/mL]
B1	> 10
B2	> 10
B3	> 10
B4	> 10
B5	5.48
B6	> 10
B7	> 10
B8	> 10
B9	> 10
B10	0.959
B11	> 10
B12	> 10

target: SARS-CoV-2 early D614G spike pseudovirus; assay: as above
Description: as §1

Binder	pseudovirus neutralization IC50 [µg/mL]
B1	0.0444
B2	0.00582
B3	0.029
B4	0.00762
B5	0.19
B6	0.0618
B7	0.0282
B8	0.00573
B9	0.154
B10	1.01
B11	> 10
B12	0.00148
